Data as given in patent US10973906B2, “Therapeutic peptides and vaccines” (priority 2005, dated 2021).

Protein sequences, listed by entry. Tags and fused reporters are not part of them.
UniProt P51681, whole entry: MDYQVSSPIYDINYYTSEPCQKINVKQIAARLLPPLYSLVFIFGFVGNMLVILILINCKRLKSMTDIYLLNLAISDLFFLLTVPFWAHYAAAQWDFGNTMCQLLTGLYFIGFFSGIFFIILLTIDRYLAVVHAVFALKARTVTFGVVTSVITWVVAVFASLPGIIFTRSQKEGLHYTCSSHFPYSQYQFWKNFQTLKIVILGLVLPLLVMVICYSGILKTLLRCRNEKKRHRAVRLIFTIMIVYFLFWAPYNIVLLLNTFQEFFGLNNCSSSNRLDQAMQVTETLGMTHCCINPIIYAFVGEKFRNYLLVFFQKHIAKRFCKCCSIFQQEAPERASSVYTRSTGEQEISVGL

Assays:
[1] = molecular target: T1, CCR5 (Homo sapiens, UniProt P51681); details: Cf2Th/synR5 cells, gp120 Bal-sCD4 complex
[2] = molecular target: T1, CCR5; experiment: biochemical; format: binding; parameters: expressed in transfected cells; host or cells: GHOST CD4.CCR5
[3] = molecular target: T1, CCR5; experiment: cell-based; format: binding; parameters: expressed in transfected cells; host or cells: ChfTh-CCR5 expressing cells (so in the source)
[4] = gp120BaL/sCD4, Cf2Th/synR5 cells

SMILES: C[C@@H](N)C(=O)N[C@@H](CO)C(=O)N[C@H](C(=O)N[C@H](C(=O)N[C@H](C(=O)N[C@@H](CC(N)=O)C(=O)N[C@@H](Cc1ccc(O)cc1)C(=O)N[C@H](C(N)=O)[C@@H](C)O)[C@@H](C)O)[C@@H](C)O)[C@@H](C)O [DAPTA, Dala1-peptide T-amide]
- co-immunoprecipitation of gp120-CD4 complex with CCR5 receptor [1]: prevents co-immunoprecipitation
- IC50 [2]: 0.051 nM
- IC50 ([3]; IC50, inhibition of gp120BaL/sCD4 binding to CCR5, gp120BaL/sCD4, Cf2Th/synR5 cells, 100 nM sCD4): 0.055 nM
- IC50 ([3]; IC50, inhibition of gp120CM235/sCD4 binding to CCR5, gp120CM235/sCD4, Cf2Th/synR5 cells): 0.32 nM
- Hill slope [3, 4]: −1.07
- inhibition of binding of gp120BaL/sCD4 to CCR5 [3, 4]: completely inhibited
